Anti-infective test results gathered from many reports (values: NIAID ChemDB through PubChem).

All rows: tests in culture; species: HIV-1

ECn: concentration that inhibits the pathogen or its effect by n%.

SMILES | read by | endpoint | cells | strain | result
COc1ccc(S(=O)(=O)N(CC2CCCC2)C[C@@H](O)CN(CCc2ccccc2)C(=O)OCc2ccccc2)cc1 | p24 | EC50 | CEM | IIIB | <1 µM
Clc1ccc(-c2csc(N/N=C/c3ccncc3)n2)cc1 | MTT | EC50 | MT-4 | IIIB | >125 µM
COC(=O)c1cccc(-c2ccc(OCc3cnc(CS(=O)c4nc5ccccc5[nH]4)c(C)c3)cc2)c1 | ELISA | EC50 | HEK293T | Clinical isolates | 6.5 µM
C/C=C1/N=C(c2ccccc2)N(c2nc(C)cc(=O)[nH]2)C1=O | RT activity | EC50 | - | - | 50.58 µg/mL
CC(C)=CCN1CC(C)Cn2c(=S)[nH]c3cccc1c32 | cytopathic effect / XTT | EC50 | CEM(SS) + CEM-SS | IIIB | 0.498 µM
CC(=O)c1cc2c3ccccc3c3ccc(N)cc3n2c1C | cytopathic effect / MTT | EC50 | MT-4 | - | >18 µM
O=C(N[C@@H](Cc1ccccc1)C(=O)C(F)(F)C(Cc1ccccc1)NS(=O)(=O)c1ccccc1)O[C@H]1CCOC1 | p24 | EC50 | CEM | IIIB | <1 µM
Cc1cc(OCc2ccc(-c3cccc(C(=O)O)c3)cc2)cnc1CS(=O)c1nc2ccccc2[nH]1 | ELISA | EC50 | HEK293T | Clinical isolates | 20 µM
CC(C)CN(C[C@@H](O)[C@H](Cc1ccccc1)NC(=O)O[C@H]1CCOC1)S(=O)(=O)c1ccc(N)cc1 | reporter gene | EC50 | MT-4 | r13205 | 1601 nM
CCn1cc(C(=O)O)c(=O)c2cc(F)c(N3CCN(c4ccccc4OC)CC3)c(OC(F)F)c21 | cytopathic effect / MTT | EC50 | MT-4 | NDK | 0.2 µM
CC1=N/C(=C/c2ccc(Cl)cc2)C(=O)N1c1nc(C)cc(Cl)n1 | RT activity | EC50 | - | - | 72.84 µg/mL
Brc1ccc(-c2csc(N/N=C/c3ccccn3)n2)cc1 | MTT | EC50 | MT-4 | IIIB | >2.71 µM
CCOC(=O)c1cc(-c2cccc([N+](=O)[O-])c2)n(-c2ccccc2)c1C | cytopathic effect / MTT | EC50 | MT-4 | - | >212 µM
C=CCn1c(=O)c(C)cn([C@H]2C[C@H](N=[N+]=[N-])[C@@H](CO)O2)c1=O | MTT | EC50 | MT-4 | IIIB | 0.9 µM
CCOC(=O)c1cc(-c2cccc([N+](=O)[O-])c2)n(-c2cccc(OC)c2)c1C | cytopathic effect / MTT | EC50 | MT-4 | - | >33 µM
Cc1cc(C#CCCO)cc(C)c1Oc1ccnc(Nc2ccc(C#N)cc2)n1 | MTT | EC50 | MT-4 | IIIB | 0.003 µM
Cc1cc(OCCCOc2ccc(-c3cccc(C(=O)O)c3)cc2)cnc1CS(=O)c1nc2ccccc2[nH]1 | ELISA | EC50 | HEK293T | Clinical isolates | 5 µM
CC(=O)c1c(Br)c2c3ccccc3c3ccccc3n2c1C | cytopathic effect / MTT | EC50 | MT-4 | - | >182 µM
COc1ccc(S(=O)(=O)N(CC2CCCC2)C[C@@H](O)CN(CCc2ccccc2)C(=O)OC2COCOC2)cc1 | p24 | EC90 | CEM | IIIB | 0.1 µM
Nc1ccc2nc3ccccc3cc2c1 | - | EC50 | Jurkat cells | - | >50 µM
CCOC(=O)c1cc2c3ccccc3c3ccc(N)cc3n2c1C | cytopathic effect / MTT | EC50 | MT-4 | - | >21 µM
C[C@H]1CC[C@]2(CC(C#N)=NO2)[C@H]2CN1C(=O)c1c(O)c(=O)c(C(=O)NCc3ccc(F)cc3F)cn12 | luminescence | EC50 | MT-4 | IIIB | 0.1 µM
COc1cccc2oc(C(=O)C(C#N)N3CCN(C(=O)c4ccccc4)C[C@H]3C)cc12 | luciferase / reporter gene | EC50 | HeLa | - | >0.5 µM
Cc1cc(OCCCOc2ccc(-c3cccc(C#N)c3)cc2)cnc1CS(=O)c1nc2ccccc2[nH]1 | ELISA | EC50 | HEK293T | Clinical isolates | 5 µM
COc1cccc2oc(C(=O)C(=O)N3CCN(C(=O)c4ccccc4)CC3)cc12 | luciferase / reporter gene | EC50 | HeLa | - | >0.5 µM
CC(=O)c1cc(-c2cccc(N=[N+]=[N-])c2)n(-c2ccccc2)c1C | cytopathic effect / MTT | EC50 | MT-4 | - | >18 µM
O=C(c1ccccc1)N(CCc1ccccc1)C[C@H](O)CN(CC1CCCC1)S(=O)(=O)C1CCCOC1 | p24 | EC90 | CEM | IIIB | 1 µM
Cc1ccnc2c1NC(=O)c1cccnc1N2C1CC1 | MTT | EC50 | MT-4 | IIIB | >0.05 µM
C[C@H]1CC[C@]2(CC(=O)N(CC3CCOCC3)O2)[C@H]2CN1C(=O)c1c(O)c(=O)c(C(=O)NCc3c(F)cc(F)cc3F)cn12 | luminescence | EC50 | MT-4 | IIIB | 0.0023 µM
Cc1nc(CCCCCCC(=O)c2ccccc2)n2nc(NCCCCCCN)ccc12 | RT activity | EC50 | MT-4 | IIIB | >10 µM
O=[N+]([O-])c1ccc(/C=N/Nc2nc(-c3ccc([N+](=O)[O-])cc3)cs2)cc1 | MTT | EC50 | MT-4 | IIIB | >73.58 µM
CCOC(=O)c1cc(-c2cccc(N=[N+]=[N-])c2)n(-c2cccc(OC)c2)c1C | cytopathic effect / MTT | EC50 | MT-4 | - | >47 µM
O=[N+]([O-])c1ccc(-c2csc(N/N=C/c3cccnc3)n2)cc1 | MTT | EC50 | MT-4 | IIIB | >62.4 µM
Cc1cc(Cl)nc(N2C(=O)/C(=C\c3ccccc3)N=C2c2ccccc2)n1 | RT activity | EC50 | - | - | 52.28 µg/mL
C[C@@H]1CN(C(=O)c2ccccc2)CCN1C(=O)C(=O)c1ccc2c(C#N)c[nH]c2c1 | luciferase / reporter gene | EC50 | HeLa | - | <1 µM
N#Cc1ccc(-c2csc(N/N=C/c3ccc([N+](=O)[O-])cc3)n2)cc1 | MTT | EC50 | MT-4 | IIIB | >10.55 µM
Cc1nc(CCCCCCC(=O)c2ccccc2)n2nc(Cl)ccc12 | RT activity | EC50 | CEM + CEM-SS | LAI | 0.3 µM
CC1=NO[C@]2(CC[C@H](C)N3C[C@H]2n2cc(C(=O)NCc4ccc(F)cc4F)c(=O)c(O)c2C3=O)C1=O | luminescence | EC50 | MT-4 | IIIB | 0.1 µM
Cc1cn([C@H]2C=C[C@@H](CO)O2)c(=O)n(C)c1=O | MTT | EC50 | MT-4 | IIIB | >359 µM
Cc1nc(CCCCCCC(=O)c2ccccc2)n2nc(NCCCCCCCCCCCCN)ccc12 | RT activity | EC50 | CEM + CEM TK- | LAI | 5.9 µM
C[C@@H]1CO[C@@]2(CC[C@H](C)N3C[C@H]2n2cc(C(=O)NCc4c(F)cc(F)cc4F)c(=O)c(O)c2C3=O)O1 | luminescence | EC50 | MT-4 | IIIB | 0.0005 µM
Cc1cc(OCC(F)(F)F)cnc1CS(=O)c1nc2ccccc2[nH]1 | ELISA | EC50 | HEK293T | Clinical isolates | 25 µM
Cc1nc(CCCCCCC(=O)c2ccccc2)n2nc(NCCCCCCCCCCN)ccc12 | RT activity | EC50 | PBMC | IIIB | >10 µM
CC1=N/C(=C/c2ccc(N(C)C)cc2)C(=O)N1c1nc(C)cc(Cl)n1 | RT activity | EC50 | - | - | 66.81 µg/mL
c1ccc2nc3ccccc3cc2c1 | - | EC50 | CEM | - | >50 µM
Cc1cn([C@H]2C[C@H](N=[N+]=[N-])[C@@H](CO)O2)c(=O)n(Cc2ccccc2)c1=O | MTT | EC50 | MT-4 | IIIB | 45 µM
O=[N+]([O-])c1ccc(-c2csc(N/N=C/c3ccccc3O)n2)cc1 | MTT | EC50 | MT-4 | IIIB | >125 µM
C[C@@H]1CN(C(=O)c2ccccc2)CCN1C(=O)C(=O)c1n[nH]c2ccccc12 | luciferase / reporter gene | EC50 | HeLa | - | <1 µM
COc1ccc(S(=O)(=O)N(CC(C)C)C[C@@H](O)CCN(CC2CCCC2)S(=O)(=O)C2CCS(=O)(=O)C2)cc1 | p24 | EC50 | CEM | IIIB | <1 µM
CC1CN(C(=O)c2ccccc2)CCN1C(=O)C(=O)c1cc2cc(Cl)ccc2[nH]1 | luciferase / reporter gene | EC50 | HeLa | - | <1 µM
C[C@H](c1ccccc1)N1O[C@@]2(CC[C@H](C)N3C[C@H]2n2cc(C(=O)NCc4c(F)cc(F)cc4F)c(=O)c(O)c2C3=O)CC1=O | luminescence | EC50 | MT-4 | IIIB | 0.0009 µM
Cc1nc(CCCCCCC(=O)c2ccccc2)n2nc(NCCCCCCNCc3cn([C@H]4C=C[C@@H](CO)O4)c(=O)[nH]c3=O)ccc12 | RT activity | EC50 | CEM + CEM TK- | LAI | 9 µM
Cc1cc(COc2ccc(-c3cccc(C(=O)O)c3)cc2)cnc1CS(=O)c1nc2ccccc2[nH]1 | ELISA | EC50 | HEK293T | Clinical isolates | 3 µM
COc1ccc(S(=O)(=O)N(CC(C)C)C(=O)C(=O)C(=O)[C@@H](Cc2ccccc2)NC(=O)O[C@H]2CCOC2)cc1 | p24 | EC90 | CEM | IIIB | 1 µM
CCCCn1c(=O)c(C)cn([C@H]2C[C@H](N=[N+]=[N-])[C@@H](CO)O2)c1=O | MTT | EC50 | MT-4 | IIIB | 6.2 µM
CCOC(=O)c1cc2c3cc(OC)ccc3c3ccc(Cl)cc3n2c1C | cytopathic effect / MTT | EC50 | MT-4 | - | >200 µM
C/C(=N\Nc1nc(-c2ccc([N+](=O)[O-])cc2)cs1)c1ccc(-n2ccnc2)cc1 | MTT | EC50 | MT-4 | IIIB | >38.9 µM
Cc1cn([C@H]2C[C@H](N=[N+]=[N-])[C@@H](CO)O2)c(=O)n(CC2CO2)c1=O | MTT | EC50 | MT-4 | IIIB | >359 µM

A second listing of 9 rows from above:

SMILES,read by,endpoint,cells,strain,result
C[C@@H]1CN(C(=O)c2ccccc2)CCN1C(=O)C(=O)c1ccc2c(C#N)c[nH]c2c1,luciferase / reporter gene,EC50,HeLa,-,<1 µM
Cc1cc(OCc2ccc(-c3cccc(C(=O)O)c3)cc2)cnc1CS(=O)c1nc2ccccc2[nH]1,ELISA,EC50,HEK293T,Clinical isolates,20 µM
CC(=O)c1cc(-c2cccc(N=[N+]=[N-])c2)n(-c2ccccc2)c1C,cytopathic effect / MTT,EC50,MT-4,-,>18 µM
CC(=O)c1c(Br)c2c3ccccc3c3ccccc3n2c1C,cytopathic effect / MTT,EC50,MT-4,-,>182 µM
COc1cccc2oc(C(=O)C(C#N)N3CCN(C(=O)c4ccccc4)C[C@H]3C)cc12,luciferase / reporter gene,EC50,HeLa,-,>0.5 µM
Cc1nc(CCCCCCC(=O)c2ccccc2)n2nc(NCCCCCCNCc3cn([C@H]4C=C[C@@H](CO)O4)c(=O)[nH]c3=O)ccc12,RT activity,EC50,CEM + CEM TK-,LAI,9 µM
C=CCn1c(=O)c(C)cn([C@H]2C[C@H](N=[N+]=[N-])[C@@H](CO)O2)c1=O,MTT,EC50,MT-4,IIIB,0.9 µM
C[C@@H]1CN(C(=O)c2ccccc2)CCN1C(=O)C(=O)c1n[nH]c2ccccc12,luciferase / reporter gene,EC50,HeLa,-,<1 µM
Cc1cn([C@H]2C[C@H](N=[N+]=[N-])[C@@H](CO)O2)c(=O)n(CC2CO2)c1=O,MTT,EC50,MT-4,IIIB,>359 µM

Blank or dashed fields: not listed here. Lines come from different laboratories, so protocols vary.